Data published in paper PMC5361054, “Exploring the Association of Surface Plasmon Resonance with Recombinant MHC:Ig Hybrid Protein as a Tool for Detecting T Lymphocytes in Mice Infected with Leishmania (Leishmania) amazonensis” (BioMed Research International, 2017).

test system: H-2 L^d:Ig (DimerX) protein; assay: SPR kinetics of synthetic peptide binding to immobilized DimerX; design: species or system Mouse; conditions: calculated from ka and kd of the SPR assay at 25°C, neutral pH
Method: Surface Functionalization of Sensor Chip (Steps 1 and 2). The functionalization process was performed in eight steps using running buffer (10 mM HEPES, 3 mM EDTA, 150 mM NaCl, and 0.005% Tween 20, pH 7.4) at a continuous flow rate (Fr): (i) injection of 10 μL of 50 mM HCl (Fr = 10 μL/min); (ii) injection of 100 μL 10 mM CH3COOH (Fr = 50 μL/min); (iii) injection of 150 μL of coupling agents (1 : 1) 400 mM EDC : NHS (Fr = 15 μL/min); (iv) injection of 100 μL 10 mM CH3COOH (Fr = 50 μL/min); (v) injection of 100 μL (0.5 μg) of DimerX H-2 L^d:Ig (Fr = 10 μL/min); (vi) injection of 100 μL 10 mM CH3COOH (Fr = 50 μL/min); (vii) injection of 150 μL 100 mM ethanolamine (Fr = 20 μL/min); and (viii) injection of 200 μL 50 mM HCl (Fr = 50 μL/min).
Complex Formation of H-2 L ^d :Ig/Peptide (Step 3). Binding of peptides to protein DimerX was performed through the injection of 100 μL of each synthetic peptide over the functionalized sensor chip (Fr = 10 μL/min). The peptides (2 mg/mL) were diluted in filtrated PBS, which was also used as the running buffer. The concentration of peptides for binding to the DimerX was determined according to the manufacturer's instructions:(1) Mp=MH·R·Dp/DH, where Mp is micrograms of the peptide, MH is micrograms of H-2 in the reaction, R is molar excess (160 mol) between the peptide and protein H-2, Dp is molecular weight of the peptide, and DH is molecular weight of DimerX (250,000 Da).
Affinity Constants and Gibbs Free Energy. […] The following calculation was used to obtain the KD for interactions that rapidly reach equilibrium:(2) KD=kd/ka. The formation of molecular complex between DimerX and peptides complex was also analyzed to calculate the Gibbs free energy of dissociation. This energy is related to the equilibrium constant (Keq) of the transition state between the product (DimerX/peptide) and its transient state. The values of Keq were calculated using the ka and kd data obtained from the SPR assay at 25°C:(3) ΔG^°=−RTln1/Keq.
The kinetic parameters of DimerX/peptides complexes were assessed, prior to the ex vivo assay with the mouse cells, to ensure that the assayed peptides could stably bind to the H-2 cleft of DimerX proteins. The DimerX proteins were immobilized onto the sensor chip using the EDC/NHS methodology for covalent binding and, thus, we assumed that the α1 and α2 domains of the recombinant H-2 were free to interact with the synthetic peptides in solution. The RU value obtained after DimerX immobilization was taken as reference to define the baseline to measure peptides binding (Figure 1).

Row | Sequence | free Gibbs energy (ΔG)
1 | CLGGGLCL [P6.4, synthetic peptide CLGGGLCL derived from the COOH-terminal region of cysteine proteinase B of L. (L.) amazonensis] | -11.0 kcal/mol
2 | MVEQVICFD [P1.9, synthetic peptide … derived from the COOH-terminal region of cysteine proteinase B of L. (L.) amazonensis] | -09.7 kcal/mol
3 | VEQVICFD [P1.10, synthetic peptide VEQVICFD derived from the COOH-terminal region of cysteine proteinase B of L. (L.) amazonensis] | -12.2 kcal/mol
4 | EFCLGGGLC [P6.5, synthetic peptide … derived from the COOH-terminal region of cysteine proteinase B of L. (L.) amazonensis] | -12.5 kcal/mol
